# According to US20160089422:
# System: P04156
substance,measurement,value
"Active recombinant human MSRA (methionine sulfoxide reductase A), ab82728, Abcam",delay of PrPsc amplification in RT-QuIC,a systematic delay is observed in the vCDJ samples treated with the MSRs
"Active recombinant human MSRB2 (methionine sulfoxide reductase B2), ab95916, Abcam",delay of PrPsc amplification in RT-QuIC,a systematic delay is observed in the vCDJ samples treated with the MSRs
